One data set deals with cowpox virus. The data set is classed as cell-based.
The test system of the next data set is vaccinia virus. It counts as cell-based.

In the case of `O=S(=O)(NC12CC3CC(CC(C3)C1)C2)NS(=O)(=O)NC12CC3CC(CC(C3)C1)C2` [Example 1, N,N^1-Bis(tricyclo[3.3.1.1^3,7]dec-1-yl)imidodisulfamide], the “SI (Selectivity Index, CC50/EC50)” value in the data set with cowpox virus is reported as “SI: 77.8”; in the data set with vaccinia virus, “SI: 1,556”.
For “Sodium N,N^1-(Tricyclo[3.3.1.1^3,7]dec-1-yl)imidodisulfamide [Example 11]”, in that order: “SI: 130” and “SI: 1,625”.

These data come from US7192606B2, “Drugs for treating viral infections” (priority 2004, dated 2007).
